{"source": "patent US5672682A", "about": "“Conotoxin peptide PVIIA” (dated 1997)", "tested_on": "goldfish", "experiment": "Bioassay by injection into goldfish", "conditions": "even in large doses"}
{"molecule": "CC[C@H](C)[C@@H]1NC(=O)[C@H](CCCNC(=N)N)NC(=O)[C@@H](N)CSSC[C@@H]2NC(=O)[C@@H]3CSSC[C@@H](C(=O)N[C@H](C(=O)O)C(C)C)NC(=O)[C@H](CCCCN)NC(=O)[C@H](CC(N)=O)NC(=O)[C@H](Cc4ccccc4)NC(=O)[C@H](CCCNC(=N)N)NC(=O)[C@H](CC(N)=O)NC(=O)[C@H](CSSC[C@H](NC(=O)[C@H](CCCCN)NC(=O)[C@H](CCC(N)=O)NC(=O)[C@H](CC(N)=O)NC(=O)[C@@H]4C[C@@H](O)CN4C1=O)C(=O)N[C@@H](Cc1ccccc1)C(=O)N[C@@H](CCC(N)=O)C(=O)N[C@@H](Cc1c[nH]cn1)C(=O)N[C@@H](CC(C)C)C(=O)N[C@@H](CC(=O)O)C(=O)N[C@@H](CC(=O)O)C(=O)N3)NC(=O)[C@H](CCCCN)NC(=O)[C@H](CCCNC(=N)N)NC(=O)[C@H](CO)NC2=O", "values": [{"measurement": "immobilization or death", "value": "did not cause either immobilization or death"}]}
